Fold change is the IC50 on the isolate divided by the IC50 on a reference virus; 1 = unchanged, higher = more resistant. Changes are given against the subtype B consensus. No active / inactive call. The values were gathered from many studies (numbered anew) with different assays, which the source does not name. Most viruses are clinical isolates; some are laboratory strains or clones with known resistance changes. Isolates with mixed residues are left out; stretches that were not sequenced show no change. Round top values that many isolates share are read here as limits; other very high values and 0.1 may be limits too. The protease changes I3V and N37S, insertions and deletions cannot be read from the source.
Columns and labels:
Assay in all cases: fold change of IC50 against reference virus; higher = more resistant; Cell-culture drug susceptibility tests of virus bearing the protease of each isolate, gathered from many studies.
indinavir = compound: CC(C)(C)NC(=O)[C@@H]1CN(Cc2cccnc2)CCN1C[C@@H](O)C[C@@H](Cc1ccccc1)C(=O)N[C@H]1c2ccccc2C[C@H]1O [indinavir]
saquinavir = compound: CC(C)(C)NC(=O)[C@@H]1C[C@@H]2CCCC[C@@H]2CN1C[C@@H](O)[C@H](Cc1ccccc1)NC(=O)[C@H](CC(N)=O)NC(=O)c1ccc2ccccc2n1 [saquinavir]
ritonavir = compound: CC(C)c1nc(CN(C)C(=O)N[C@H](C(=O)N[C@@H](Cc2ccccc2)C[C@H](O)[C@H](Cc2ccccc2)NC(=O)OCc2cncs2)C(C)C)cs1 [ritonavir]
tipranavir = compound: CCC[C@@]1(CCc2ccccc2)CC(O)=C([C@H](CC)c2cccc(NS(=O)(=O)c3ccc(C(F)(F)F)cn3)c2)C(=O)O1 [tipranavir]
atazanavir = compound: COC(=O)N[C@H](C(=O)N[C@@H](Cc1ccccc1)[C@@H](O)CN(Cc1ccc(-c2ccccn2)cc1)NC(=O)[C@@H](NC(=O)OC)C(C)(C)C)C(C)(C)C [atazanavir]
nelfinavir = compound: Cc1c(O)cccc1C(=O)N[C@@H](CSc1ccccc1)[C@H](O)CN1C[C@H]2CCCC[C@H]2C[C@H]1C(=O)NC(C)(C)C [nelfinavir]
lopinavir = compound: Cc1cccc(C)c1OCC(=O)N[C@@H](Cc1ccccc1)[C@@H](O)C[C@H](Cc1ccccc1)NC(=O)[C@H](C(C)C)N1CCCNC1=O [lopinavir]

| Test System | fold change of IC50 against reference virus (indinavir) | fold change of IC50 against reference virus (saquinavir) | fold change of IC50 against reference virus (ritonavir) | fold change of IC50 against reference virus (tipranavir) | fold change of IC50 against reference virus (atazanavir) | fold change of IC50 against reference virus (nelfinavir) | fold change of IC50 against reference virus (lopinavir) |
| --- | --- | --- | --- | --- | --- | --- | --- |
| HIV-1 isolate 891 (protease changes: L63P I64L, study 64) | 1 | 1.1 | 1 | 1.2 | 0.6 | 1.4 | 1 |
| HIV-1 isolate 1543 (protease changes: L10F I13V V32I L33I M36I I54V L63P A71I I85V L90M, study 64) | 37 | 35 | 70 | 2 | 70 | 80 | 15 |
| HIV-1 isolate 1051 (protease changes: I13V M46I L63P T74S V82T, study 15) | 3.5 | 0.5 | 5.3 | 2.4 | 2.6 | 3.5 | 1.9 |
| HIV-1 isolate 819 (protease changes: L10I L24I R41K M46I L63P I64V V82A I84V, study 64) | 3.8 | 3.4 | 28 | 1.3 | 3.1 | 4.4 | 7.9 |
| HIV-1 isolate 1431 (protease changes: L10F I13V L33I M36I R41K M46L I54L L63P I64V N88D, study 64) | 2.9 | 2.4 | 5.5 | 0.8 | 3 | 3.6 | 5 |
| HIV-1 isolate 1309 (protease changes: L10I I13V L33F E35D K43T I54L L63P I64L V77I L90M, study 64) | 1.4 | 3.9 | 10 | 1.5 | 3.2 | 4.4 | 2.1 |
| HIV-1 isolate 745 (protease changes: L10V M46I I62V I64V K70R T74A V77I L90M I93L, study 64) | 2.3 | 1.1 | 1.6 | 0.6 | 1.2 | 3.6 | 1 |
| HIV-1 isolate 1259 (protease changes: L10F I13V G16A L19V L33F E34Q K43I M46L G51A I54M L63P I64M A71V I72M G73A I84V L90M, study 64) | 22 | 66 | ≥ 800 | 12 | 90 | 52 | 70 |
| HIV-1 isolate 559 (protease changes: L19I L63S E65D I72V V77I, study 64) | 0.5 | 0.5 | 0.6 | 0.6 | 0.6 | 0.6 | 0.5 |
| HIV-1 isolate 652 (protease changes: L10I V11I I13V A22V V32I R41K M46I K55R I62V L63P I64V H69Q A71V V82A I84V, study 64) | 7.7 | 3.8 | 49 | 7.9 | 45 | 7.8 | 19 |
| HIV-1 isolate 732 (protease changes: E35D M36I L63P, study 64) | 0.6 | 0.9 | 1.2 | 1.3 | 1 | 1.3 | 0.9 |
| HIV-1 isolate 314 (protease changes: T4S L10I K20R E35D M36I L63P H69Q L90M, study 64) | 1.6 | 2.5 | 3.1 | 1 | 1.5 | 3.3 | 1.4 |
| HIV-1 isolate 1344 (protease changes: L10I K43S M46I I54V R57K I62V L63P A71V G73T V77I V82F L90M I93L, study 64) | 170 | 19 | ≥ 800 | 3.4 | 72 | 124 | 160 |
| HIV-1 isolate 1455 (protease changes: K14R R41K I64V Q92K, study 64) | 0.6 | 0.6 | 0.7 | 0.6 | 0.7 | 0.9 | 0.7 |
| HIV-1 isolate 208 (protease changes: L10I K20R L24I E35D M36I N37E M46I I54V Q61N I62V L63P I64V A71V I72V T74S L76V V82T I93L, study 64) | ≥ 500 | 8.2 | 84 | 1.4 | 7.7 | 31 | ≥ 500 |
| HIV-1 isolate 1554 (protease changes: I13V I64V I72V, study 64) | 0.8 | 0.7 | 0.8 | 0.8 | 0.5 | 1.1 | 0.8 |

| Test System | fold change of IC50 against reference virus (indinavir) | fold change of IC50 against reference virus (saquinavir) | fold change of IC50 against reference virus (ritonavir) | fold change of IC50 against reference virus (tipranavir) | fold change of IC50 against reference virus (atazanavir) | fold change of IC50 against reference virus (nelfinavir) | fold change of IC50 against reference virus (lopinavir) |
| --- | --- | --- | --- | --- | --- | --- | --- |
| HIV-1 isolate 635 (protease changes: L10I I13V K20T D60E L63P C67D A71V V77I L90M I93L, study 64) | 4.8 | 3.7 | 4.2 | 0.6 | 3.4 | 9.3 | 1.6 |
| HIV-1 isolate 683 (protease changes: R41K L63P V77I, study 64) | 0.6 | 0.7 | 0.8 | 0.9 | 0.7 | 1.2 | 0.6 |
| HIV-1 isolate 930 (protease changes: Q58E L63P K70R, study 15) | 0.6 | 0.7 | 0.6 | 0.8 | 0.7 | 0.7 | 0.7 |
| HIV-1 isolate 615 (protease changes: L10I N37D M46I L63P A71T I72V V77I I84V I85V L89I L90M Q92R I93L, study 64) | 28 | 21 | 28 | 1.9 | 7.4 | 45 | 15 |
| HIV-1 isolate 17 (protease changes: I15V R41K L63A I64V K70R, study 64) | 0.7 | 0.8 | 0.8 | 1.2 | 0.7 | 1 | 0.7 |
| HIV-1 isolate 988 (protease changes: L10I V11I I15V Q18H L19I K20I M36I N37D M46I K55R K70R A71V I72M P79D I84V N88T L90M, study 15) | 49 | 92 | 40 | 2.8 | 2.6 | 55 | 36 |
| HIV-1 isolate 458 (protease changes: I15V M36I L63C, study 64) | 0.6 | 0.7 | 0.5 | 0.8 | 0.6 | 0.6 | 0.5 |
| HIV-1 isolate 359 (protease changes: L10I T12E K20I E35D I62V L63P A71V G73S V77I L90M, study 64) | 11 | 7.7 | 6.6 | 0.5 | 6.7 | 18 | 2.3 |
| HIV-1 isolate 50 (protease changes: I13V R41K D60E L63P, study 64) | 1 | 1.3 | 1.2 | 1.6 | 1.1 | 1.3 | 1 |
| HIV-1 isolate 40 (protease changes: L10I I13V L24I L33F M36L K43T M46I I54V D60E I62V L63P A71V T74S V82A N83D I93L, study 64) | 16 | 29 | 132 | 1.6 | 98 | 149 | 49 |
| HIV-1 isolate 860 (protease changes: L10I L24F M46I D60E I62V L63P A71V I72V G73S V77I L90M I93L, study 64) | 17 | 21 | 18 | 0.9 | 16 | 49 | 8.9 |
| HIV-1 isolate 514 (protease changes: T12S I62V L63P V77I L90M I93L, study 64) | 1.8 | 2.7 | 2.9 | 1 | 1.7 | 4.3 | 1.1 |
| HIV-1 isolate 970 (protease changes: L10I L24I L63P I64V I72L V77I V82A, study 15) | 4.6 | 0.9 | 12 | 0.4 | 3.1 | 3.7 | 2.9 |
| HIV-1 isolate 260 (protease changes: I13V Q18H L63P, study 64) | 0.7 | 0.7 | 0.8 | 0.6 | 0.5 | 1.1 | 0.5 |
| HIV-1 isolate 496 (protease changes: L10I K20R L24I L33F E35D M36I N37D M46L I54V L63P A71T V82A T91S, study 64) | 20 | 8.8 | ≥ 800 | 1.2 | 38 | 43 | 113 |
| HIV-1 isolate 1369 (protease changes: L10I I13V L63P H69Q I72V V77I, study 64) | 1.5 |  | 1.9 | 1.2 | 1.5 | 2.2 | 1.2 |
